Tested on: HepDE19 cells
Test: Cytotoxicity (CCK-8 cell viability) and selectivity index
Assay type: cell-based, human
Conditions: CC50 value/EC50 value
Source text: HepG2.2.15 and HepDE19 are stably-transfected cell lines containing the HBV genome. Both cell lines are derived from the hepatoblastoma cell line Hep G2 (American Type Culture Collection, ATCC® HB-8065™) by the published procedures described in references: M A Selles et al. Proc. Natl. Acad. Sci. USA 1987, 84, 1005-1009 and H Guo et al. Journal of Virology 2007, 81, 12472-12484, respectively. Both cell lines were maintained in Dulbecco's modified Eagle's medium (DMEM)-F12 medium supplemented with 10% fetal bovine serum, 100 U/mL penicillin, 100 μg/mL streptomycin, and 0.5 mg/mL of G418.
In a cell culture model, apparent antiviral activity of a compound can be the result of host cell death after exposure to the compound. To determine whether the anti-HBV effect of a test compound is due to cytotoxicity, HepDE19 cells were seeded into 96-well plates (5×10^3 cells per well) and treated with compounds as described above for EC50 determination. Five days after treatment, cell viability was measured by addition of 20 μL of CCK-8 reagent. Two hours after incubation at 37° C., the absorbance at wavelengths of 450 nm and 630 nm (OD450 and OD630) was recorded by a plate reader. The concentration results in the death of 50% of the host cells (CC50) of each compound was determined (See Table 5).

SMILES	Selectivity index (CC50/EC50)
COC(=O)C1=C(CN2[C@@H]3C[C@@H](CC(=O)O)C[C@H]2C(F)(F)C3)NC(c2nccs2)=N[C@H]1c1ccc(Cl)c(F)c1 (single isomer, unassigned) [Example 113, 2-[(1R,3R,5S)-8-[[(4S)-4-(4-chloro-3-fluoro-phenyl)-5-methoxycarbonyl-2-thiazol-2-yl-1,4-dihydropyrimidin-6-yl]methyl]-6,6-difluoro-8-azabicyclo[3.2.1]octan-3-yl]acetic acid or 2-[(1S,3S,5R)-8-[[(4S)-4-(4-chloro-3-fluoro-phenyl)-5-methoxycarbonyl-2-thiazol-2-yl-1,4-dihydropyrimidin-6-yl]methyl]-6,6-difluoro-8-azabicyclo[3.2.1]octan-3-yl]acetic acid]	6404
COC(=O)C1=C(CN2[C@H]3COC[C@@H]2C(F)(F)[C@H](CC(=O)O)C3)NC(c2nccs2)=N[C@H]1c1ccc(F)c(F)c1Cl (single isomer, unassigned) [Example 131, 2-[(1R,5R,7S)-9-[[(4R)-4-(2-chloro-3,4-difluoro-phenyl)-5-methoxycarbonyl-2-thiazol-2-yl-1,4-dihydropyrimidin-6-yl]methyl]-6,6-difluoro-3-oxa-9-azabicyclo[3.3.1]nonan-7-yl]acetic acid or 2-[(1S,5S,7R)-9-[[(4R)-4-(2-chloro-3,4-difluoro-phenyl)-5-methoxycarbonyl-2-thiazol-2-yl-1,4-dihydropyrimidin-6-yl]methyl]-6,6-difluoro-3-oxa-9-azabicyclo[3.3.1]nonan-7-yl]acetic acid]	9346

— patent publication US9266904B2, “6-bridged heteroaryldihydropyrimidines for the treatment and prophylaxis of hepatitis B virus infection” (priority 2013, dated 2016)
